Assay [1] is described as follows: Minimum inhibitory concentration against Candida albicans. Format: functional.
Assay [2] relates to Aspergillus niger. Description: Minimum inhibitory concentration against Aspergillus niger.

For the molecule `CCOC(=O)C1(C(=O)C#N)C(Cl)C(=O)N1N(c1c(O)ccc2c(P(Cl)Cl)pc(-c3ccccc3)n12)[N+](=O)[O-]` (stereo unspecified), the -Log MIC in assay [1] amounted to 4.41 µg ml-1; in assay [2], 4.37 µg ml-1.
For `CCOC(=O)C1(C(=O)OCC)C(Cl)C(=O)N1N(c1c(O)ccc2c(P(Cl)Cl)pc(C(=O)O)n12)[N+](=O)[O-]` (stereo unspecified) the same measures were 4.13 µg ml-1 and 4.11 µg ml-1.
For `CC(=O)C1(C(C)=O)C(Cl)C(=O)N1N(c1c(O)ccc2c(P(Cl)Cl)pc(-c3ccccc3)n12)[N+](=O)[O-]` (stereo unspecified) the same measures were 4.19 µg ml-1 and 4.18 µg ml-1.
For `CC(=O)C1(C(=O)Nc2ccccc2)C(Cl)C(=O)N1N(c1c(O)ccc2c(P(Cl)Cl)pc(-c3ccccc3)n12)[N+](=O)[O-]` (stereo unspecified) the same measures were 4.97 µg ml-1 and 4.77 µg ml-1.
In the case of `CCOC(=O)C1(C(=O)C#N)C(Cl)C(=O)N1N(c1c(O)ccc2c(P(Cl)Cl)pc(C(=O)O)n12)[N+](=O)[O-]` (stereo unspecified), the results for the -Log MIC in assay [1] and in assay [2] were 4.08 µg ml-1 and 4.07 µg ml-1, respectively.
As for `CC(=O)C1(C(C)=O)C(Cl)C(=O)N1N(c1c(O)ccc2c(P(Cl)Cl)pc(C(=O)O)n12)[N+](=O)[O-]` (stereo unspecified), the -Log MIC in assay [1] is 4.01 µg ml-1; in assay [2], 3.97 µg ml-1.
For `CCOC(=O)C1(C(=O)CBr)C(Cl)C(=O)N1N(c1c(O)ccc2c(P(Cl)Cl)pc(-c3ccccc3)n12)[N+](=O)[O-]` (stereo unspecified) the same measures were 4.63 µg ml-1 and 4.58 µg ml-1.
`CCOC(=O)C1(C(=O)OCC)C(Cl)C(=O)N1N(c1c(O)ccc2c(P(Cl)Cl)pc(-c3ccccc3)n12)[N+](=O)[O-]` (stereo unspecified): the -Log MIC in assay [1] was 4.5 µg ml-1; in assay [2], 4.44 µg ml-1.
As to `CCOC(=O)C1(C(=O)CBr)C(Cl)C(=O)N1N(c1c(O)ccc2c(P(Cl)Cl)pc(C(=O)O)n12)[N+](=O)[O-]` (stereo unspecified), the -Log MIC amounted to 4.19 µg ml-1 in assay [1] and 4.17 µg ml-1 in assay [2].
For `O=C(O)c1pc(P(Cl)Cl)c2ccc(O)c(N(N3C(=O)C(Cl)C3(C(=O)c3ccccc3)C(=O)c3ccccc3)[N+](=O)[O-])n12` (stereo unspecified) the same measures were 4.75 µg ml-1 and 4.65 µg ml-1.
For `COC(=O)C1(C(=O)OC)C(Cl)C(=O)N1N(c1c(O)ccc2c(P(Cl)Cl)pc(C(=O)O)n12)[N+](=O)[O-]` (stereo unspecified) the same measures were 4.04 µg ml-1 and 4.02 µg ml-1.
For `CCOC(=O)C1(C(=O)OC)C(Cl)C(=O)N1N(c1c(O)ccc2c(P(Cl)Cl)pc(C(=O)O)n12)[N+](=O)[O-]` (stereo unspecified) the same measures were 4.04 µg ml-1 and 4.03 µg ml-1.
As to `COC(=O)C1(C(C)=O)C(Cl)C(=O)N1N(c1c(O)ccc2c(P(Cl)Cl)pc(C(=O)O)n12)[N+](=O)[O-]` (stereo unspecified), the -Log MIC in assay [1] was determined as 4.02 µg ml-1; in assay [2], 4 µg ml-1.
In the case of `COC(=O)C1(C(C)=O)C(Cl)C(=O)N1N(c1c(O)ccc2c(P(Cl)Cl)pc(-c3ccccc3)n12)[N+](=O)[O-]` (stereo unspecified), the -Log MIC in assay [1] is 4.27 µg ml-1; in assay [2], 4.25 µg ml-1.
For `CCOC(=O)C1(C(C)=O)C(Cl)C(=O)N1N(c1c(O)ccc2c(P(Cl)Cl)pc(-c3ccccc3)n12)[N+](=O)[O-]` (stereo unspecified) the same measures were 4.53 µg ml-1 and 4.46 µg ml-1.
For `CC(=O)C1(C(=O)c2ccccc2)C(Cl)C(=O)N1N(c1c(O)ccc2c(P(Cl)Cl)pc(-c3ccccc3)n12)[N+](=O)[O-]` (stereo unspecified) the same measures were 4.85 µg ml-1 and 4.69 µg ml-1.
For `CC(=O)C1(C(=O)Nc2ccccc2)C(Cl)C(=O)N1N(c1c(O)ccc2c(P(Cl)Cl)pc(C(=O)O)n12)[N+](=O)[O-]` (stereo unspecified) the same measures were 4.37 µg ml-1 and 4.34 µg ml-1.
Regarding `CC(=O)C1(C(=O)c2ccccc2)C(Cl)C(=O)N1N(c1c(O)ccc2c(P(Cl)Cl)pc(C(=O)O)n12)[N+](=O)[O-]` (stereo unspecified), the -Log MIC in assay [1] is 4.26 µg ml-1; in assay [2], 4.25 µg ml-1.

Values taken from ChEMBL document CHEMBL1141981, “Studies on synthesis and evaluation of quantitative structure-activity relationship of 5-[(3'-chloro-4',4'-disubstituted-2-oxoazetidinyl)(N-nitro)amino]-6-hydroxy-3-alkyl/aryl[1,3]azaphospholo[1,5-a]pyridin-1-yl-phosphorus dichlorides” (2005).
